Anti-infective test results gathered from many reports (values: NIAID ChemDB through PubChem).

Shared fields: whole-cell or culture tests; species: HIV-1; read by: cytopathic effect / MTT; read-out: EC50

An empty or dashed field is not shown. ECn is the concentration giving n% inhibition of infection, replication or growth. Conditions beyond the fields shown may differ between rows.

compound	mutations	cell line	strain or isolate	result
CCCCSc1nc(Sc2ccc3ccccc3c2)cc(=O)[nH]1	-	MT-4	IIIB	≥200 µM
CCOC(=O)c1cn(Cc2ccncc2)c(Sc2cc(F)cc(F)c2)c1C(C)C	-	MT-4	IIIB	1.2 µM
COc1ccc(Oc2c(C(=O)O)oc3cc(O)cc(O)c3c2=O)c(OC)c1	-	MT-4	IIIB	>25 µg/mL
Oc1ccc2c(c1)N=C(N1CCNCC1)c1ccccc1N2	-	MT-2	IIIB	85 µg/mL
COc1cc(O)ccc1C(=O)CC(=O)c1ccc(O)cc1	-	MT-4	IIIB	>20 µg/mL
Cc1nc2n(c(=O)c1CCN1CCC(c3noc4cc(F)ccc34)CC1)CCCC2	-	MT-2	IIIB	>15 µg/mL
Fc1cccc(F)c1C1SCc2nc3ccccc3n21	RT-E138K	-	IIIB	1.73 µM
CCc1c(Sc2ccc3ccccc3c2[N+](=O)[O-])n(COC)c(=O)[nH]c1=O	-	MT-4	IIIB	0.47 µM
Cc1cccc2c1nc1n2C(c2c(F)cccc2Cl)SC1	-	MT-4	IIIB	1.9 µM
Cc1ccnc2c1NC(=O)c1cccnc1N2C1CC1	-	MT-4	IIIB	0.17 µM
Cc1ccnc2c1NC(=O)c1cccnc1N2C1CC1	-	MT-4	IIIB Recombinant wild type	0.019 µM
CCC(C)Oc1cc(N)nc(Sc2cccc(N)c2)n1	-	MT-4	IIIB	>112 µM
Cc1cc(C)cc(Sc2c(C(C)C)c(CO)cn2Cc2ccncc2)c1	-	MT-4	IIIB	0.5 µM
CCC(C)Oc1nc(N)cc(Sc2ccccc2)n1	-	MT-4	IIIB	>80 µM
CCOC(=O)c1cn(Cc2ccncc2)c(Sc2cccc(F)c2)c1C(C)C	-	MT-4	IIIB	3.2 µM
O=C(c1ccccc1)c1ccc2c(c1)nc1n2C(c2c(F)cccc2F)SC1	-	MT-4	IIIB	>26.7 µM
COc1ccc2c(c1)N(C(=O)OC(C)C)[C@@H](CSC)C(=S)N2	RT-E138A S162C E169D T200A L214F	MT-4	HXB2 (RT E138A S162C E169D T200A L214F) Clinical isolate	0.00312 µM
O=c1[nH]cnc2c1ncn2[C@H]1CC[C@@H](CO)O1	-	CEM-T4 + CEM	IIIB	0.43 µg/mL
CCOC(=O)c1oc2cc(O)cc(O)c2c(=O)c1Oc1ccc(OC)cc1OC	-	MT-4	IIIB	>25 µg/mL
Cc1cccc2nc3n(c12)C(c1c(F)cccc1Cl)SC3	-	MT-4	IIIB	>25.7 µM
O=c1[nH]cnc2c1ncn2[C@H]1CC[C@@H](CO)O1	RT-E138A	MT-4	Recombinant mutant	11.2 µM
COc1ccc2c(c1)nc1n2C(c2c(Cl)cccc2Cl)SC1	-	MT-4	IIIB	>1.7 µM
COc1ccc(-c2oc3cc(O)cc(O)c3c(=O)c2OC)cc1O	-	MT-4	IIIB	>0.16 µg/mL
CCOC(=O)c1cn(Cc2ccc([N+](=O)[O-])cc2)c(Sc2cc(Cl)cc(Cl)c2)c1C(C)C	-	MT-4	IIIB	>200 µM
COCCOCn1c(Sc2cccc3ccccc23)c(C(C)C)c(=O)[nH]c1=O	-	MT-4	IIIB	0.65 µM
CCC(C)Oc1nc(N)cc(S(=O)(=O)c2cc(C)cc(C)c2)n1	-	MT-4	IIIB	>33 µM
CCc1c(C)[nH]c(=O)c(-n2cccc2)c1Cc1cc(C)cc(C)c1	RT-Y188L	MT-4	Recombinant	1.995 µM
Cn1cc(C(=O)O)c(=O)c2cc(F)c(N3CC=C(c4ccccc4)CC3)c(C(F)(F)F)c21	-	MT-4	IIIB	0.2 µM
CCc1c(Sc2cccc3ccccc23)n(COCc2ccc(F)cc2)c(=O)[nH]c1=O	-	MT-4	IIIB	0.092 µM
Cc1ccnc2c1NC(=O)c1cccnc1N2C1CC1	RT-L100I K103N	MT-4	Recombinant	1.452 µM
COc1c(/C=C/C(=O)c2ccc(O)cc2)ccc(O)c1O	-	MT-4	IIIB	>20 µg/mL
Cc1cn([C@H]2C[C@H](N=[N+]=[N-])[C@@H](CO)O2)c(=O)[nH]c1=O	-	PBMC	-	0.004 µM
CC1(C)C=Cc2c(cc(O)c3c(=O)c4c(oc23)-c2ccc(O)cc2OC(C(C)(C)OO)C4)O1	-	MT-4	IIIB	>40 µg/mL
CCC(C)Oc1cc(N)nc(Sc2ccc(Cl)cc2N)n1	-	MT-4	IIIB	>88 µM
COc1ccc2nc3n(c2c1)C(c1c(Cl)cccc1Cl)SC3	-	MT-4	IIIB	>292 µM
CC(C)c1c(Sc2cccc3ccccc23)n(COCC2CC2)c(=O)[nH]c1=O	-	MT-4	IIIB	0.38 µM
Fc1cc2nc3n(c2cc1F)C(c1c(F)cccc1F)SC3	-	MT-4	IIIB	>37.3 µM
O=C(CCCN1CCC(O)(c2ccc(Cl)cc2)CC1)c1ccc(F)cc1	-	CEM-T4 + CEM	IIIB	>132 µg/mL
COc1c(CC=C(C)C)c(O)cc2c1[C@@H]1Oc3cc(O)c(CC=C(C)C)cc3[C@@H]1CO2	-	MT-4	IIIB	>20 µg/mL
Fc1cccc(Cl)c1C1SCc2nc3cc(C(F)(F)F)ccc3n21	-	MT-4	IIIB	>335 µM
COc1c(O)c(Cl)c2c(c1OC)-c1c(c(Cl)c(O)c(OC)c1OC)C[C@H](C)[C@H](C)C2	RT-K103N Y181C	MT-4	A17	>20 µM
CC(C)=CCc1cc(C(=O)/C=C/c2ccc(O)cc2)c(O)cc1O	-	MT-4	IIIB	>4 µg/mL
CCC(C)Oc1nc(N)cc(Sc2cccc(C)c2)n1	-	MT-4	IIIB	>115 µM
CCOCn1c(Sc2ccc3ccccc3c2N)c(CC)c(=O)[nH]c1=O	-	MT-4	IIIB	7.06 µM
O=c1cc(Cl)nc(Sc2ccccc2)[nH]1	-	MT-4	IIIB	>186 µM
CCOCn1c(Sc2cccc3ccccc23)c(C)c(=O)[nH]c1=O	-	MT-4	IIIB	0.46 µM
CC(C)=CCc1c(O)cc2oc(-c3ccc(O)c(O)c3)c(O)c(=O)c2c1O	-	MT-4	IIIB	>40 µg/mL
Fc1cc2nc3n(c2cc1F)C(c1c(Cl)cccc1Cl)SC3	-	MT-4	IIIB	>17.6 µM
COc1c(O)c(I)c2c(c1OC)-c1c(c(I)c(O)c(OC)c1OC)C[C@H](C)[C@H](C)C2	RT-K103N Y181C	MT-4	A17	8.71 µM
Nc1cc(Cl)nc(S(=O)(=O)c2ccccc2)n1	-	MT-4	IIIB	>6 µM
CC(=O)c1ccc(C)cc1NC(C(N)=O)c1c(Cl)cccc1Cl	-	MT-4	IIIB Recombinant wild type	0.00512 µM
CC(C)c1c(CO)cn(Cc2ccncc2)c1Sc1cc(Cl)cc(Cl)c1	-	MT-4	IIIB	0.003 µM
CCC(C)Oc1cc(N)nc(Sc2ccc(N)cc2)n1	-	MT-4	IIIB	>200 µM